Assay results reported in patent publication US12076390 (Dana-Farber, dated 2024).
Where a chain is given by its changes, count along the chain named. Several values for one entry are separate records, joined by “and”; a condition that tells them apart may be missing. Identical values can stand only once. Like-named read-outs stand apart in the source and are kept apart here.

Tests used:
[1] = target: T1, H3-BR07 protein (recombinant HA of H3 A/Brisbane/10/07) (influenza A virus A/Brisbane/10/07 …)
[2] = target: T1, H3-BR07 protein (recombinant HA of H3 …); remark: listed apart in the source
[3] = target: T1, H3-BR07 protein (recombinant HA of H3 …); remark: listed apart in the source
[4] = target: T1, H3-BR07 protein (recombinant HA of H3 …); remark: listed apart in the source
[5] = target: T2, Recombinant full length HA of H5 A/Vietnam/1203/04 (H5-VN04) (influenza A virus A/Vietnam/1203/04 …); experiment: BLI (Octet RED96), IgG1, recombinant HA
[6] = target: T2, Recombinant full length HA of H5 …
[7] = target: Recombinant full length HA of H3 A/Victoria/341/11 (H3-VIC11) (influenza A virus A/Victoria/341/11 (H3)); experiment: recombinant HA; footnote says SPR biosensor, methods describe BLI
[8] = target: Recombinant full length HA of H7 A/Anhui/1/13 (H7-AH13) (influenza A virus A/Anhui/1/13 (H7N9)); experiment: as above
[9] = target: T3, Recombinant full length HA of H3 A/Perth/16/09 (H3-PE09) (influenza A virus A/Perth/16/09 (H3N2)); experiment: as above
[10] = target: Recombinant full length HA of H5 A/Indonesia/05/05 (H5-IN05) (influenza A virus A/Indonesia/05/05 (H5)); experiment: as above
[11] = target: Recombinant full length HA of H3 A/Uruguay/716/07 (H3-UY07) (influenza A virus A/Uruguay/716/07 (H3)); experiment: as above
[12] = target: Recombinant full length HA of H9 A/Hong Kong/1073/99 (H9-HK99) (influenza A virus A/Hong Kong/1073/99 …); experiment: as above
[13] = target: T3, Recombinant full length HA of H3 …

B1: 3I14 Fab (Fab, V domains shown)
VH: QVQLLESGGGVVQPGRSLRLSCAASGFTFSNYGMHWVRQAPGKGLEWVAIISFDGSKKYYANSVKGRSTISRDNSKNTLSLQMNSLGPEDTALYYCAKLPSPYYFDSRFVWVAASAFHFWGQGILVTVSS
VL: NFMLTQPPSASGTPGQRVTISCSGSSSNIGGNTVHWFQQLPGTAPKLLIYTNSLRPSGVPDRFSGSKSGTSASLAISGLQSEDEADYYCAAWDDSLNGQVFGGGTKLTVL
[1]
  IC50 (read off the curve): ~7 nM
[2]
  IC50 (read off the curve): ~5 nM
[3]
  IC50 (read off the curve): ~4 nM
[4]
  IC50 (read off the curve): ~5 nM and ~7 nM

B2: 3I14 VLD94N IgG1 (antibody, V domains shown)
VH: B1 VH
VL: B1 VL with D94N
[5]
  koff: 7.74e-05 s⁻¹
  kon: 383000 M⁻¹ s⁻¹
[6]
  koff: 1.26e-05 s⁻¹
  kon: 67200 M⁻¹ s⁻¹

B3: 3I14 IgG1 (antibody, V domains shown)
VH: B1 VH
VL: B1 VL
[7]
  Kd: 0.33 nM
[8]
  Kd: 0.67 nM
[9]
  Kd: 0.26 nM
[10]
  Kd: 1.05 nM
[11]
  Kd: 0.18 nM
[12]
  Kd: 5.23 nM
[13]
  koff: 0.000127 s⁻¹
  kon: 64700 M⁻¹ s⁻¹
